Results of unrelated studies side by side (data: NIAID ChemDB).

All rows: whole-cell or culture tests; agent: HIV-1; measure: EC50

Neighbouring rows are from separate reports. Two numbers with a dash give a range or band. ECn is the concentration giving n% inhibition of infection, replication or growth. An empty or dashed field is not shown.

smiles,strain or isolate,mutations,cells,method,setting,result
COc1ccc(Br)c2[nH]cc(C(=O)C(=O)N3CCN(/C(=N/S(C)(=O)=O)c4ccccc4)CC3)c12,Luciferase reporter virus,-,HeLa(CD4+) + HeLa,luciferase,-,<0.5 µM
COc1cc([C@H]2c3c(cc(OC)c(OC)c3OC)C[C@H]3CSC[C@@H]32)cc(OC)c1OC,IIIB,-,SUP-T1/H9(HIV-1IIIB) + Sup-T1,syncytia,-,0.43 µM
CC(C)C1=C2[C@H]3CC[C@@H]4[C@@]5(C)CC[C@H](OC(=O)[C@H]6C[C@@H](C(=O)O)C6(C)C)C(C)(C)[C@@H]5CC[C@@]4(C)[C@]3(C)CC[C@@]2([C@@H](O)CNC(=O)c2ccccc2)CC1=O,92HT599,-,MT-2,p24 / ELISA,-,<1 µM
NC(N)=Nc1cccc(OCc2ccccc2)c1,IIIB,-,C8168,-,-,6 µM
C[C@H]1CN(C(=O)Cn2cc(N3CCCS3(=O)=O)n3c(=O)c(O)c(-c4ncc(Cc5ccc(F)cc5)s4)nc23)C[C@H](C)O1,-,QHGS,HEK 293,luciferase,-,0.5–1 µM
N=C(N)c1cccc(OCc2cccc([N+](=O)[O-])c2)c1,-,-,HUT4-3/SX22-1,β-galactosidase / cell fusion,-,>10 µM
CCN1c2ncc(CCOc3ccc(-c4ccc(CC(=O)O)cc4)cc3)cc2C(=O)N(C)c2cccnc21,-,RT-K103N Y181C,C8166,p24,-,>0.05 µM
CC1CC(C)CN(C(=O)Cn2cc(N3CCCS3(=O)=O)n3c(=O)c(O)c(C(=O)NCc4ccc(Cl)c(Cl)c4)nc23)C1,-,QHGS,HEK 293,luciferase,-,0.5–1 µM
CC(C)C1=C2[C@H]3CC[C@@H]4[C@@]5(C)CC[C@H](OC(=O)[C@H]6C[C@@H](C(=O)O)C6(C)C)C(C)(C)[C@@H]5CC[C@@]4(C)[C@]3(C)CC[C@@]2([C@@H](O)CNC(=O)C(C)(C)NC(=O)CN(C)C)CC1=O,92HT599,-,MT-2,p24 / ELISA,-,<1 µM
Cc1ccc(-c2ccc3c(c2)C=C(C(=O)Nc2ccc(C[N+](C)(C)C4CCOCC4)cc2)CCC3)cc1,TB6 CLADE C,-,PBMC,p24,-,<1 µM
O=C(C(=O)N1CCN(C(=Nc2cccnc2)c2ccccc2)CC1)c1c[nH]c2cccc(F)c12,Luciferase reporter virus,-,HeLa(CD4+) + HeLa,luciferase,-,>0.5 µM
CN1CCN(C(=O)Cn2ccn3c(=O)c(O)c(-c4ncc(Cc5ccc(F)cc5)s4)nc23)CC1,-,-,HEK 293,luciferase,-,0.1–1 µM
COc1cnc(-n2ccnn2)c2[nH]cc(C(=O)C(=O)N3CCN(C(=NC#N)c4ccccc4)CC3)c12,Luciferase reporter virus,-,HeLa(CD4+) + HeLa,luciferase,-,<0.5 µM
COc1ccc(-c2scc3c(N4CC[C@@H](NC(C)=O)C4)nc(Cl)nc23)cc1OC,-,-,H9,p24,-,>100 µM
Cc1cn([C@H]2C=C[C@@H](OCP(=O)(O)O)O2)c(=O)[nH]c1=O,LAI,-,CEM-F + CEM,ELISA,-,1.8 µg/mL
CN=C(c1ccccc1)N1CCN(C(=O)C(=O)c2c[nH]c3c(-n4ccnn4)ncc(F)c23)CC1,Luciferase reporter virus,-,HeLa(CD4+) + HeLa,luciferase,-,<0.5 µM
Cc1cn(C(CCO)SCCO)c(=O)[nH]c1=O,-,-,PBMC (mitogen stimulated) + PBMC,RT activity,-,>100 µM
CCCCCCCCCC[N+](C)(C)CCCNCc1c(O)cc2c(c1O)-c1cc(ccc1O)[C@H]1NC(=O)[C@@H]3NC(=O)C4NC(=O)[C@@H](Cc5ccc(c(Cl)c5)Oc5cc3cc(c5O)Oc3ccc(cc3Cl)[C@@H](O)[C@H](NC1=O)C(=O)N[C@@H]2C(=O)O)NC(=O)[C@H](N)c1ccc(O)c(c1)Oc1cc(O)cc4c1,HE,-,MOLT-4/C8 + MOLT-4,syncytia,-,3.7 µM
O=C(NCc1ccc(F)cc1F)c1cn2c(c(O)c1=O)C(=O)N(CCCCCCO)CC2,-,G118R,HEK 293,luciferase,-,0.0677 µM
CCN1c2ncc(CCOc3ccc(-c4ccc(CCC(=O)O)cc4)cc3C)cc2C(=O)N(C)c2cccnc21,IIIB,-,C8166,p24,-,<0.01 µM
CC(C)C1=C2[C@H]3CC[C@@H]4[C@@]5(C)CC[C@H](OC(=O)[C@H]6C[C@@H](C(=O)O)C6(C)C)C(C)(C)[C@@H]5CC[C@@]4(C)[C@]3(C)CC[C@@]2(CCNCC(C)(C)NC(=O)c2ccc(O[C@H]3CCOC3)cc2)CC1=O,92HT599,-,MT-2,p24 / ELISA,-,<1 µM
CCN1c2ncc(CCOc3ccc(-c4cn(C)cn4)cc3C)cc2C(=O)N(C)c2cccnc21,-,RT-K103N Y181C,C8166,p24,-,<0.01 µM
O=C(O)C(O)c1ccccc1,BaL,-,U87 (CD4+ CCR5+) + U87,p24,-,1 µg/mL
N=C(c1ccccc1)N1CCN(C(=O)C(=O)c2c[nH]c3c(Br)ccc(F)c23)CC1,Luciferase reporter virus,-,HeLa(CD4+) + HeLa,luciferase,-,<0.5 µM
COCCOc1ccc(CNC[C@H](O)[C@@]23CC[C@]4(C)[C@H](CC[C@@H]5[C@@]6(C)CC[C@H](OC(=O)[C@H]7C[C@@H](C(=O)O)C7(C)C)C(C)(C)[C@@H]6CC[C@]54C)C2=C(C(C)C)C(=O)C3)cc1,92HT599,-,MT-2,p24 / ELISA,-,<1 µM
CN=C(c1ccccc1)N1CCN(C(=O)C(=O)c2c[nH]c3c(-n4cnc(C)n4)ncc(OC)c23)CC1,Luciferase reporter virus,-,HeLa(CD4+) + HeLa,luciferase,-,<0.5 µM
COc1cc([C@H]2c3c(cc4c(c3OC)OCO4)C[C@H]3COC(=O)[C@@H]32)cc(C)c1OC,IIIB,-,SUP-T1/H9(HIV-1IIIB) + Sup-T1,syncytia,-,12.13 µM
CC(C)C1=C2[C@H]3CC[C@@H]4[C@@]5(C)CC[C@H](OC(=O)[C@H]6C[C@@H](C(=O)O)C6(C)C)C(C)(C)[C@@H]5CC[C@@]4(C)[C@]3(C)CC[C@@]2(CC(=O)NCC(F)(CO)NC(=O)c2ccc(Cl)cc2)CC1=O,92HT599,-,MT-2,p24 / ELISA,-,<1 µM
CCCCC(C)(C)[C@H](O)/C=C/[C@H]1C=CC(=O)[C@@H]1CCCCCCC(=O)O,DV,-,Macrophage + Macrophages,p24,-,5.2 µg/mL
COc1ccc(-n2c(C)nc3c(N4CC[C@@H](NC(C)=O)C4)ncnc32)cc1OC,-,-,H9,p24,-,>100 µM
CC1CN(C(=O)C(C)n2ccn3c(=O)c(O)c(-c4ncc(Cc5ccc(F)cc5)s4)nc23)CC(C)O1,-,QHGS,HEK 293,luciferase,-,1–10 µM
O=C(NCc1ccc(F)cc1F)c1cn2c(c(O)c1=O)C(=O)N(CCCCCO)CC2,-,G118R,HEK 293,luciferase,-,0.2427 µM
Nc1ccn([C@H]2CC[C@@H](CO)O2)c(=O)n1,NL4-3,A96D,-,β-galactosidase,-,0.255 µM
CCN(CC)C(=S)N=Nc1c(O)n(C)c2ccccc12,-,-,H9/HIV-1 + H9,plaque count,chronic infection,0.4 µg/mL
O=C(NCc1ccc(F)cc1F)c1cn2c(c(O)c1=O)C(=O)NCC2,-,S230N,HEK 293,luciferase,-,0.1033 µM
COc1ccc(-c2c(C)nc3c(N4CC[C@@H](NC(=O)Cc5ccccc5)C4)cc(C)nn23)cc1OC,-,-,H9,p24,-,0.1 µM
CCN1c2ncc(CCOc3ccc(-c4ccc(C(=O)O)cc4)c(C)c3)cc2C(=O)N(C)c2cccnc21,-,RT-K103N Y181C,C8166,p24,-,>0.05 µM
Nc1ncnc2c1ncn2[C@H]1C=C[C@@H](OCP(=O)(O)O)O1,LAI,-,CEM-F + CEM,ELISA,-,45 µM
COc1ccc(-c2c(C)nc3c(N4CC[C@@H](NC(=O)C5CCCCC5)C4)cc(C)nn23)cc1,-,-,H9,p24,-,0.7 µM
CC(C)C1=C2[C@H]3CC[C@@H]4[C@@]5(C)CC[C@H](OC(=O)[C@H]6C[C@@H](C(=O)O)C6(C)C)C(C)(C)[C@@H]5CC[C@@]4(C)[C@]3(C)CC[C@@]2(CC(=O)NC2(CNC(=O)c3ccc(Cl)cc3)CCCC2)CC1=O,92HT599,-,MT-2,p24 / ELISA,-,<1 µM
C[C@H]1CN(C(=NC#N)c2ccccc2)CCN1C(=O)C(=O)c1c[nH]c2c(-c3ccccn3)ccc(F)c12,Luciferase reporter virus,-,HeLa(CD4+) + HeLa,luciferase,-,<0.5 µM
Cc1cc(-c2ccc(CC(=O)O)cc2)ccc1OCCc1cnc2c(c1)C(=O)N(C)c1cccnc1N2,IIIB,-,C8166,p24,-,<0.01 µM
CC(C)C1=C2[C@H]3CC[C@@H]4[C@@]5(C)CC[C@H](OC(=O)[C@H]6C[C@@H](C(=O)O)C6(C)C)C(C)(C)[C@@H]5CC[C@@]4(C)[C@]3(C)CC[C@@]2(CC(=O)N(CCN(C)C)Cc2cc(C(C)C)n[nH]2)CC1=O,92HT599,-,MT-2,p24 / ELISA,-,<1 µM
C[C@H]1CN(C(=O)Cn2ccn3c(=O)c(O)c(-c4ncc(Cc5ccc(F)cc5S(=O)(=O)N(C)C)s4)nc23)C[C@H](C)O1,-,QHGS,HEK 293,luciferase,-,<0.5 µM
N=C(N)c1cccc(OCc2ccc(Br)cc2)c1,-,-,HUT4-3/SX22-1,β-galactosidase / cell fusion,-,>10 µM
O=C(Cn1ccn2c(=O)c(O)c(-c3ncc(Cc4ccc(F)cc4)s3)nc12)N1CCOCC1,-,Q148H/G140S,HEK 293,luciferase,-,>1 µM
N=C(N)c1cccc(OCc2ccccc2)c1,-,-,HUT4-3/SX22-1,β-galactosidase / cell fusion,-,>10 µM
CC(C)C1=C2[C@H]3CC[C@@H]4[C@@]5(C)CC[C@H](OC(=O)[C@H]6C[C@@H](C(=O)O)C6(C)C)C(C)(C)[C@@H]5CC[C@@]4(C)[C@]3(C)CC[C@@]2(CCNC(=O)C(C)(C)C)CC1=O,92HT599,-,MT-2,p24 / ELISA,-,<1 µM
O=C(C(=O)N1CCN(C(=NC2CC2)c2ccccc2)CC1)c1c[nH]c2cccc(F)c12,Luciferase reporter virus,-,HeLa(CD4+) + HeLa,luciferase,-,>0.5 µM
CC(C)C1=C2[C@H]3CC[C@@H]4[C@@]5(C)CC[C@H](OC(=O)[C@H]6C[C@@H](C(=O)O)C6(C)C)C(C)(C)[C@@H]5CC[C@@]4(C)[C@]3(C)CC[C@@]2(CC(=O)NC[C@H]2CCCNC2)CC1=O,92HT599,-,MT-2,p24 / ELISA,-,<1 µM
NC(N)=Nc1cccc(OCc2ccc(Br)cc2)c1,-,-,HUT4-3/SX22-1,β-galactosidase / cell fusion,-,>10 µM

For reference, 6 entries again:

smiles	strain or isolate	mutations	cells	method	setting	result
Cc1cc(-c2ccc(CC(=O)O)cc2)ccc1OCCc1cnc2c(c1)C(=O)N(C)c1cccnc1N2	IIIB	-	C8166	p24	-	<0.01 µM
COc1ccc(-c2c(C)nc3c(N4CC[C@@H](NC(=O)Cc5ccccc5)C4)cc(C)nn23)cc1OC	-	-	H9	p24	-	0.1 µM
C[C@H]1CN(C(=O)Cn2ccn3c(=O)c(O)c(-c4ncc(Cc5ccc(F)cc5S(=O)(=O)N(C)C)s4)nc23)C[C@H](C)O1	-	QHGS	HEK 293	luciferase	-	<0.5 µM
CC(C)C1=C2[C@H]3CC[C@@H]4[C@@]5(C)CC[C@H](OC(=O)[C@H]6C[C@@H](C(=O)O)C6(C)C)C(C)(C)[C@@H]5CC[C@@]4(C)[C@]3(C)CC[C@@]2(CC(=O)N(CCN(C)C)Cc2cc(C(C)C)n[nH]2)CC1=O	92HT599	-	MT-2	p24 / ELISA	-	<1 µM
CCN1c2ncc(CCOc3ccc(-c4ccc(CCC(=O)O)cc4)cc3C)cc2C(=O)N(C)c2cccnc21	IIIB	-	C8166	p24	-	<0.01 µM
CC1CN(C(=O)C(C)n2ccn3c(=O)c(O)c(-c4ncc(Cc5ccc(F)cc5)s4)nc23)CC(C)O1	-	QHGS	HEK 293	luciferase	-	1–10 µM